Source: ChEMBL document CHEMBL3988442, “University of Dundee, Small-Polar-MMV Screening Library” (2021).

Mtb glucose medium: 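Whole-cell growth test on Mycobacterium tuberculosis, read after 3 days in glucose-containing 7H9 medium; the read-out is not stated. Concentration: 500 µM. Higher reads as more growth inhibition (inferred: compounds with an IC50 in retests scored well above the rest). Of about 18,000 compounds tested this way, about 1,400 (7.9%) reached 50% or more in at least one test.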
Mtb cholesterol medium: 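Growth of Mycobacterium tuberculosis over 4 days (cholesterol / DPPC medium with tyloxapol); the read-out is not stated. Compounds at 500 µM. Higher reads as more growth inhibition (inferred: compounds with an IC50 in retests scored well above the rest). About 18,000 compounds were tested under these conditions; 5% (about 900) showed 50% or more at least once.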

Each number is a percent effect as filed.
The record does not define 0% and 100%; most values in the screen are far below 50% and negative numbers occur (in some assays of this library far below -100).
The entries come from a sample that favours strong results.
A dash means the value is not listed here; it may have been measured.

SMILES	Mtb glucose medium	Mtb cholesterol medium
CCN(CC(C)C#N)C(=O)c1ccc(C)[nH]c1=O (centres unmarked)	-	-20.83
CN(C(=O)CCNC(=O)C1CCCO1)c1ccccc1 (centres unmarked)	11.22	-
Cc1nccc(CN)n1	4.468	-
Cc1cc(CN)nn1C	10.26	-
COCCCNC(=O)c1ccc(Cn2cncn2)cc1	16.83	-
c1ccc(NCCCN2CCOCC2)cc1	-	21.89
COc1cccc(N2CC(N)CC2=O)c1 (centres unmarked)	25.09	-
CC(O)Cn1cccn1 (centres unmarked)	7.891	3.993
O=S(=O)(CCO)c1ccc(Br)cc1	-	17.23
CN(CC(N)=O)CC1CCCCC1	-	5.795
Cc1ccc(S(=O)(=O)N(C)C(C)CN)cc1 (centres unmarked)	44.54	-
NCCc1ccnc(N)c1	-	1.615
NC1CCCN(c2ccccc2F)C1=O (centres unmarked)	-	-0.9063
CC(C)(O)CSc1nnc(NCc2ccco2)s1	68.61	80.02
COCCN(Cc1ccccn1)C(=O)CC1CCNC1 (centres unmarked)	6.96	-
CCS(=O)(=O)N(C)C1CCN(c2nc(C)ns2)CC1	18.38	-
O=C(CCC(=O)c1ccc(F)cc1)NCc1ccco1	65.06	-
CN(C)c1ccc2c(c1)OCC(=O)N2	0.2965	-
CC(=O)c1cccc(COC(=O)c2cccnc2)c1	56.3	99.72
COCC1(C(=O)N2CCC[C@@H]2C(N)=O)CCC1	9.494	-
CC(C)(C)N1CC(=O)NCC1=O	-	2.197
CNCc1cc(C#N)ccc1F	46.32	24.94
O=C(Nc1ncc(Br)cn1)c1ccco1	39.18	-
CC(=O)NCc1ccc(C(=O)CSc2ccccn2)s1	51.43	-
O=C(c1ccncc1C(F)(F)F)N1CC[C@@H](CO)C1	-2.158	-
CCn1c(C)nnc1SCC(=O)Nc1nccs1	-4.281	-
CN1CCc2nc(NC(=O)c3cncc(Br)c3)sc2C1	-11.23	-4.042
CCn1cc(C2CSCCN2)cn1 (centres unmarked)	2.47	-
CNS(=O)(=O)c1ccc(CNc2cccc(C)n2)cc1	-4.956	-
COc1ccc2c(c1)C(N)CCN2 (centres unmarked)	-0.7744	-
COCCCN1CCC(Nc2ccc(Cl)cn2)CC1	28.16	5.566
CCOCC(C)Nc1ccc(C)c(S(C)(=O)=O)c1 (centres unmarked)	43.06	69.69
CCNCC(=O)Nc1cccc(OC)c1	15.31	18.43
Cc1cc(CC(C)NC(=O)CCn2nnnc2C)[nH]n1 (centres unmarked)	6.723	-
O=C(CSCc1ccccn1)N1CCCOCC1	7.703	-
CN(C)CCCNC1CCS(=O)(=O)C1 (centres unmarked)	-8.123	-
CCNC(=O)NCCCOCC1CCOC1 (centres unmarked)	-	-7.578
CC(C)CC(C)Oc1cc(CN)ccn1 (centres unmarked)	40.22	51.12
CC(CNC(=O)NCc1cc[nH]n1)N1CCCC1 (centres unmarked)	-	-0.5512
CC(C)CC1C(=O)NCCN1C(=O)C1CCOCC1 (centres unmarked)	-	-16.34

The last 3 entries again:

SMILES,Mtb glucose medium,Mtb cholesterol medium
CC(C)CC(C)Oc1cc(CN)ccn1 (centres unmarked),40.22,51.12
CC(CNC(=O)NCc1cc[nH]n1)N1CCCC1 (centres unmarked),-,-0.5512
CC(C)CC1C(=O)NCCN1C(=O)C1CCOCC1 (centres unmarked),-,-16.34